Assay results from patent publication US20190391160, “METHODS AND COMPOSITIONS FOR MODIFYING CYSTIC FIBROSIS TRANSMEMBRANE CONDUCTANCE REGULATOR ACTIVITY” (published 2019).

Molecular target: human ΔF508-CFTR, P13569

B1: recombinant human non-pancreatic secreted phospholipase A2 group IIA (protein)
chain: NLVNFHRMIKLTTGKEAALSYGFYGCHCGVGGRGSPKDATDRCCVTHDCCYKRLEKRGCGTKFLSYKFSNSGSRITCAKQDSCRSQLCECDKAAATCFARNKTTYNKKYQYYSNKHCRGSTPRC
For B1, the “ΔF508CFTR Cl- current (IcAMP), two-electrode voltage clamp in X. laevis oocytes” value was “did not increase DF508CFTR Cl- current but even reduced its activity”.
